Experimental data taken from the supplement of paper PMC9931576.
Human monoclonal antibodies against the spike receptor-binding domain (heavy:light variable regions). IC50 against pseudoviruses bearing the spike of naturally observed variants; lower = stronger; >10 µg/ml means not reached at the top dose. No active / inactive call. The stated detection limit is 0.0005 µg/ml; values near or below 0.001 µg/ml lie at the floor of the assay.

Legend:
Test in all cases: pseudovirus neutralization IC50; higher = weaker neutralization
[1] = molecular target: SARS-CoV-2 Omicron BA.1 spike pseudovirus
Protocol: (§1)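 Single-round VSV luciferase pseudovirus mixed with antibody dilutions for 1 h and put on Huh-7 cells for about a day; IC50 from the dose curve.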

[2] = molecular target: SARS-CoV-2 Omicron BA.2 spike pseudovirus
Protocol: as §1

[3] = molecular target: SARS-CoV-2 Omicron BA.2.75 spike pseudovirus
Protocol: as §1

[4] = molecular target: SARS-CoV-2 Omicron BA.5 spike pseudovirus
Protocol: as §1

[5] = molecular target: SARS-CoV-2 Omicron BQ.1.1 spike pseudovirus
Protocol: as §1

[6] = molecular target: SARS-CoV-2 Omicron XBB spike pseudovirus
Protocol: as §1

[7] = molecular target: SARS-CoV-2 early D614G spike pseudovirus
Protocol: as §1

Binder	pseudovirus neutralization IC50 [1] [µg/mL]	pseudovirus neutralization IC50 [2] [µg/mL]	pseudovirus neutralization IC50 [3] [µg/mL]	pseudovirus neutralization IC50 [4] [µg/mL]	pseudovirus neutralization IC50 [5] [µg/mL]	pseudovirus neutralization IC50 [6] [µg/mL]	pseudovirus neutralization IC50 [7] [µg/mL]
BD55-6043 (protein) chain 1: EVQLVESGGGLVQPGGSLRLSCAASGFTVSNNYMSWVRQAPGKGLEWVSVIYSADSTHYADSVRGRFTISRDNSKNTVDFQMNSLRAEDTAVYYCARGIVAANGDYFDCWGQGTLVTVSS chain 2: SYVLTQPPSVSVAPGKTARITCGGNNIGSKSVHWYQQRPGQAPVLVIYYDSDRPSGIPERFSGSNSGNTATLTITRVEAGDEADYFCQVWDGSSHHHWVFGGGTKLTVL	> 10	> 10	> 10	> 10	> 10	> 10	> 10
BD55-6059 (protein) chain 1: QVQLVQSGSELKKPGASVKVSCKASGYTFFSYGLNWVRQAPGQGLEWMGWIDTSTGNPTYARGSTGRFVFSLDTSVSTAYLEISSLKTEDTAMYYCARMYPPVCYDVLTGDYCHDYYYYMDVWGKGTTVTVSS chain 2: SSELTQPPSVSVSPGQTARITCSGDALPKKYAYWYQQKSGQAPVLVIYEDDKRPSGIPERFSGSNSGTMATLTISGAQVDDEADFYCSSVDSSGNRGVIFGGGTKLSVL	> 10	> 10	> 10	> 10	> 10	> 10	> 10
BD55-6074 (protein) chain 1: QLQLQESGPGLVKPSETLSLTCTVSGGSISSSSYCWAWIRQPPGKGLEWIGSICYSVSTNYNPSLKSRVTISVDTSKNQFSLKLSSVTAADTAVYYCARHSGYDPEFDYWGQGTLVTVSS chain 2: DIQMTQSPSTLSASVGDRVTITCRASQSISRWLAWYQQKPGKAPKLLIYKASILESGVPSRFSGSGSGTEFTLTISSLQPDDFATYYCQHYNSYPYTFGQGTKLEIK	> 10	> 10	> 10	> 10	> 10	> 10	> 10
BD55-1162 (protein) chain 1: QLQLQESGPGLLKPSETLSLNCSVSGGSISSSSYYWGWIRQPPGKGLQWIGHVYYTGITYSNPSLESRLTISVDTSKNQFSLALSSVTAADTAVYYCARRVRYFDYSNSFDVWGHGTTVTVSS chain 2: QSALTQPASVSGSPGQSVTISCTGTSSDVGTYDLVSWYQHHPGKAPKLVIYEVTKRPSGVSNRFSASKSGNTASLTISGLRAEDEADYYCCANAGSNIMFGGGTKLTVL	> 10	> 10	> 10	> 10	> 10	> 10	> 10
BD55-6080 (protein) chain 1: QVQVVESGGGVVQPGRSLRLSCAASGFTFNTYGMHWVRQAPGKGLEWVAVISYDGSNKNYGDSVKGRFTISRDNSKNTVYLQMNSLRAEDTAVYYCATPLHDYSGYDLFDYYYGMDVWGQGTTVTVSS chain 2: QSVLTQPPSASGTPGQRVTISCSGSSSNIGSDYVYWYQQLPGTAPKLLIYRNNHRPSGVPDRFSGSKSGTSASLAISGLRSEDEADYYCAAWDDSLSGWVFGGGTKLTVL	> 10	> 10	> 10	> 10	> 10	> 10	0.0157
BD55-6081 (protein) chain 1: EVQLVESGGGLVKPGGSLRLSCAASGFTFSSSTVNWVRQAPGKGLEWVSSISSSSSYIYYADSVKGRFTISRDNAKNSLFLQLNNLRAEDTAVYYCARLMGSYPMDYYYNPMDVWGQGTTVTVSS chain 2: DIQLTQSPSSLSASVGDRVTITCRASQSISSYLNWYQQKPGRAPKLLIYAASTLQSGVPSRFSGTGSGTDFTLTISSLQPEDFATYYCQQGFGIPRTFGQGTKLEIK	> 10	> 10	> 10	> 10	> 10	> 10	> 10
